Source: patent US20110212235A1, “ANTIMICROBIAL SALT SOLUTIONS FOR CHEESE PROCESSING APPLICATIONS” (priority 2006, published 2011)
Entries after “also recorded” stand apart in the source; their conditions may differ.

Experiment: Taste test of blue cheese wheels brined with octanoic acid
Conditions: blue cheese wheels brined in brine with up to 250 ppm octanoic acid, cured about a month, taste tested

## CCCCCCCC(=O)O [octanoic acid, octanoic (caprylic) acid]
  effect on cheese flavor: No off flavors; also recorded: no detrimental effects on cheese flavor
